Values from PubChem BioAssay AID504761 (Drosophila RNAi Screening Center, 2011).

- Purpose: 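Insect host genes that dengue virus relies on to spread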 (primary screen)
- Cells: D.Mel-2 cells from Drosophila
- Knock-down reagent: long dsRNA against Drosophila genes
- Treatment: infection with dengue virus type 2; dose and infection time not stated
- Read-out: 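Cells stained for dengue envelope protein and imaged; percent of infected cells per well on duplicate plates, ranked by infection, with stained nuclei counted for cell number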
- Scale: infection score: higher = more virus-infected cells; cell count: higher = more cells in the well
- Rule for the call: 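Low infection ranks in the two replicates (chance level up to 0.065) followed by a retest with a 1.5-fold or larger significant decrease, p below 0.05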
- Meaning of the calls: active = confirmed: knock-down lowers infection; inactive = not picked or not confirmed
The deposit covers about 22,000 reagents; below is an unselected part of those that have a named target and a result. In the full data, 116 (0.52%) are marked active. 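Calls depend on retest data that are not deposited; infection was ranked per plate without normalising between plates; the unit of the infection score is not given.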 Raw values vary from plate to plate and are shown uncorrected. A plus sign joins genes that one reagent is predicted to hit. Reagent sequences are not shown. The record does not give: the amount of reagent, the time to read-out.

target,dsRNA,"infection score, replicate 1","infection score, replicate 2","cell count, replicate 1","cell count, replicate 2",Outcome
CG12436 (retired record) + CG42514,DRSC26599,1.03,1.8,6436,6014,inactive
sphe (GeneID 32648),DRSC20203,5.39,2.86,6623,6357,inactive
CG1941 (GeneID 35718),DRSC06802,14.3,7.78,5911,2043,inactive
CG16854 (GeneID 34539),DRSC02536,24.8,15.7,5682,5810,inactive
bves (GeneID 33083),DRSC20520,1.33,2.52,6107,4878,inactive
bves (GeneID 33083),DRSC20555,10.8,2.58,5425,6116,inactive
Arp8 (GeneID 32769),DRSC20059,4.95,3.88,6340,6521,inactive
Arp8 (GeneID 32769),DRSC26432,4.13,1.13,5863,6290,inactive
CG34448 (GeneID 5740554),DRSC26596,3.16,0.36,6229,6148,inactive
CG4704 (GeneID 42706),DRSC15628,4.27,3.62,6463,6241,inactive
CG30034 (retired record) (GeneID 246407),DRSC05288,3.14,3.3,6180,5845,inactive
CG10384 (GeneID 37567),DRSC03933,0.96,2.35,5943,5920,inactive
CG10384 (GeneID 37567),DRSC28924,17.9,,4252,374,inactive
wda (GeneID 42750),DRSC15579,11.3,5.83,6759,7000,inactive
wda (GeneID 42750),DRSC22351,1.35,6.26,6668,6676,inactive
CG9626 (GeneID 40979),DRSC16525,3.59,3.27,6350,6370,inactive
CG9626 (GeneID 40979),DRSC27021,10.3,2.6,4870,6149,inactive
CG4382 (GeneID 34279),DRSC02743,,,461,424,inactive
CG4382 (GeneID 34279),DRSC29493,,,376,350,inactive
Ugt37C1 (GeneID 53583),DRSC07416,12.2,13.6,6549,5682,inactive
Ugt37C1 (GeneID 53583),DRSC24066,3.77,5.99,6014,5677,inactive
CG14212 (GeneID 32964),DRSC19568,3.25,0.16,5605,5787,active
CG14212 (GeneID 32964),DRSC27314,16.2,12.1,6268,5632,inactive
CG6294 + CG6299,DRSC19980,5.61,23.5,2743,4500,inactive
CG6294 + CG6299,DRSC27443,37.9,11.3,5182,6278,inactive
CG9458 (GeneID 41214),DRSC16495,4.76,8.78,6539,6381,inactive
ppk9 (GeneID 37498),DRSC04134,6.09,23.9,6418,6093,inactive
ppk9 (GeneID 37498),DRSC04135,16.8,25,6351,6137,inactive
CG15544 (GeneID 43655),DRSC15082,4.9,,1101,328,inactive
CG15544 (GeneID 43655),DRSC25686,1.86,6.11,6342,6297,inactive
ktub (GeneID 37400),DRSC04551,6.53,17.4,2955,6435,inactive
mfrn (GeneID 43353),DRSC15687,,2.4,345,1622,inactive
ppk5 (GeneID 2768987),DRSC11492,4.75,2.07,6195,6149,inactive
CG17048 (GeneID 36479),DRSC06649,1.91,7.41,1047,1215,inactive
CG33306 (GeneID 2768915),DRSC01899,11.7,15.7,5864,5919,inactive
CG33306 (GeneID 2768915),DRSC29187,15.3,13,5973,5952,inactive
CG10339 (GeneID 37854),DRSC04065,3.97,9.1,5743,6266,inactive
l(3)62Be (retired record) (GeneID 48504),DRSC08231,11.6,16.6,4811,3704,inactive
Myo61F (GeneID 38153),DRSC22144,1.76,16,6823,6007,inactive
Myo61F (GeneID 38153),DRSC27633,3.7,7.79,6597,6569,inactive
bcd + CR14578,DRSC20984,1.36,2.02,6534,6571,inactive
CG6236 (GeneID 41857),DRSC15999,16.4,11.7,6109,6193,inactive
Nnp-1 (GeneID 44391),DRSC02165,6.28,7.79,6195,6351,inactive
Nnp-1 (GeneID 44391),DRSC29816,24.6,13.1,5088,4819,inactive
beat-IV (GeneID 42778),DRSC14195,10,9.12,6536,6765,inactive
beat-IV (GeneID 42778),DRSC14673,1.96,0.35,510,571,inactive
Cyp4d20 (GeneID 38311),DRSC08654,2.33,8.09,6579,6750,inactive
Cyp4d20 (GeneID 38311),DRSC25418,0.57,7.34,6273,5611,inactive
TM9SF3 (GeneID 38635),DRSC09747,1.27,2.58,5752,5816,inactive
CG31268 (GeneID 318652),DRSC13203,8.07,10.3,5787,5230,inactive
CG10969 (GeneID 39451),DRSC09811,0.21,1.2,6221,6570,inactive
CG10969 (GeneID 39451),DRSC29502,,,301,354,inactive
CG10505 (GeneID 37428),DRSC04075,18.7,14.9,4912,5335,inactive
IntS2 (GeneID 32745),DRSC20094,2.96,1.35,5337,5766,inactive
CG8516 (GeneID 41206),DRSC16437,3.87,7.61,6433,6295,inactive
CG9372 (GeneID 40137),DRSC11068,2.41,3.21,6515,6051,inactive
CG4766 (GeneID 31533),DRSC17736,1.62,1.25,6596,6490,inactive
Cpr5C (GeneID 31510),DRSC18340,2.54,2.87,6822,6933,inactive
Cap-G (GeneID 36440),DRSC06652,6.26,4.81,6728,6565,inactive
Cap-G (GeneID 36440),DRSC06653,6.93,10.8,6303,6818,inactive
Cap-G (GeneID 36440),DRSC21805,5.48,2.32,3123,2157,inactive
CG5880 (GeneID 43268),DRSC15906,10.1,2.88,6422,6325,inactive
CG43707 (GeneID 33601),DRSC00280,2.68,0.62,6453,6098,inactive
CG43707 (GeneID 33601),DRSC22869,1.12,1.86,5692,5538,inactive
CG43707 (GeneID 33601),DRSC25146,2.69,6.27,6102,6318,inactive
CG11779 (GeneID 42298),DRSC14384,13.5,3.73,5069,5901,inactive
Pka-C2 (GeneID 43644),DRSC16790,2.38,3.28,4235,3991,inactive
Pka-C2 (GeneID 43644),DRSC23310,2.53,3.97,6692,7181,inactive
Pka-C2 (GeneID 43644),DRSC29076,9.76,20,5828,5339,inactive
CG40045 (GeneID 3355079),DRSC21232,7.76,6.94,6560,6284,inactive
CSN1a (GeneID 34857),DRSC01951,13,5.34,6140,6666,inactive
witty (GeneID 34145),DRSC02378,8.31,11.4,5751,5922,inactive
witty (GeneID 34145),DRSC21650,2.84,3.95,6023,6349,inactive
witty (GeneID 34145),DRSC26154,13.4,6.55,4980,6029,inactive
